Pooled drug test results. Numbers come from NIAID ChemDB, via PubChem.

All rows: toxicity to cultured cells; cell line: MT-4; measure: CC50

Rows are shuffled and stem from different studies. CCn: concentration that lowers growth or viability of the cells by n%. Blank or dashed fields: not listed here.

SMILES | method | result
Cc1cc(C)c(Oc2ccc([N+](=O)[O-])c(NC3CCN(Cc4ccc(S(N)(=O)=O)cc4)CC3)n2)c(C)c1 | MTT | 22 µM
Cc1cn([C@H]2C[C@H](N=[N+]=[N-])[C@@H](CO)O2)c(=O)[nH]c1=O | - | 8 µM
Cc1cn([C@H]2C[C@@H]3OC[C@H]2[C@@H]3CO)c(=O)[nH]c1=O | MTT | >400 µg/mL
COc1ccc2nc3cc(Cl)ccc3c(N3CCCC(O)C3)c2c1 | MTT | 6.2 µM
COc1cc(NC(C)CCCN)c2ncccc2c1 | MTT | 17.9 µM
Cc1cc(C#N)cc(C)c1Oc1ccc([N+](=O)[O-])c(NC2CCN(Cc3ccc(S(C)(=O)=O)cc3)CC2)n1 | MTT | >146 µM
Cc1cc(C#N)cc(C)c1Oc1ccnc(NC2CCN(CC(=O)Nc3ccc(Cl)c(Cl)c3)CC2)n1 | MTT | 1.275 µM
CCc1c(C(=O)c2cccc3ccccc23)n(CC=C(C)C)c(=O)[nH]c1=O | MTT | 36.33 µM
CCCCCCCCCC(=O)O[C@@H]1[C@@H](C)[C@@]2(O)[C@@H](C=C(COC(C)=O)C[C@@]3(O)C(=O)C(C)=C[C@@H]23)[C@@H]2C(C)(C)[C@]12OC(C)=O | - | >500 µg/mL
CCOC(=O)c1cn(Cc2ccncc2)c(Sc2cccc(C)c2)c1C(C)C | MTT | 70 µM
Cc1cn([C@@H]2O[C@H](CO[Si](C)(C)C(C)(C)C)[C@@]3(OS(=O)(=O)C=C3N)[C@H]2O[Si](C)(C)C(C)(C)C)c(=O)[nH]c1=O | - | 12 µM
COc1ccc2nc3cc(Cl)ccc3c(NC[C@@H]3CCCN4CCCC[C@H]34)c2c1 | MTT | 0.5 µM
C1CNCCNCC(CCCC2CNCCNCCCNCCNC2)CNCCNC1 | - | 300 µM
CC(=O)c1cn(Cc2ccncc2)c(Sc2cc(Cl)cc(Cl)c2)c1C(C)C | MTT | >200 µM
CC(C)Nc1cccnc1N1CCN(C(=O)c2cc3cc(NS(C)(=O)=O)ccc3[nH]2)CC1 | MTT | >43.8 µM
Cc1cc(C)c(Oc2ccc([N+](=O)[O-])c(NC3CCN(Cc4ccc(C(N)=O)cc4)CC3)n2)c(C)c1 | MTT | 19 µM
O=C1CCNCCNCCCNCCN1 | - | 280 µM
Cc1cn([C@H]2C[C@H](O)[C@@H](CO)[C@@H]2C)c(=O)[nH]c1=O | MTT | >400 µg/mL
Cc1ccccc1NC(=O)CN1CCC(Nc2nccc(Oc3c(C)cc(C#N)cc3C)n2)CC1 | MTT | 1.254 µM
CCCCCCCCCCCCCC(=O)O[C@@H]1[C@@H](C)[C@]2(O)[C@@H]3C=C(C)C(=O)[C@@H]3CC(COC(C)=O)=C[C@H]2[C@@H]2C(C)(C)[C@]12OC(C)=O | - | >1000 µg/mL
Cc1cn([C@H]2C[C@H](N=[N+]=[N-])[C@@H](CO)O2)c(=O)[nH]c1=O | MTT | 35.6 µM
NC(=O)c1ncn([C@@H]2O[C@H](CO)[C@@H](O)[C@H]2O)n1 | - | >26 µM
Cc1cc(C#N)cc(C)c1Oc1ccc([N+](=O)[O-])c(NC2CCN(Cc3ccncc3)CC2)n1 | MTT | 25 µM
Nc1ncnc2c1ncn2[C@H]1CC[C@@H](CO)O1 | - | >500 µM
CC(C)Cc1ccc(C(C)C(=O)O)cc1 | - | 1000 µM
C#CCn1c(C(=O)c2cccc3ccccc23)c(CC)c(=O)[nH]c1=O | MTT | 4.82 µM
Cc1cn([C@@H]2O[C@H](CO[Si](C)(C)C(C)(C)C)C3(OS(=O)(=O)C=C3N)[C@H]2O[Si](C)(C)C(C)(C)C)c(=O)n(CC(=O)N[C@@H](C)C(=O)O)c1=O | - | >250 µM
COc1ccc2nc3cc(Cl)ccc3c(NCCN3CCOCC3)c2c1 | MTT | 1.8 µM
COc1ccc2c(c1)c(CC(=O)O)c(C)n2C(=O)c1ccc(Cl)cc1 | - | >1000 µM
COc1ccc2nc3cc(Cl)ccc3c(N3CCN(c4ccccc4)CC3)c2c1 | MTT | >100 µM
Cc1cc(C)c(Nc2ccc([N+](=O)[O-])c(NC3CCN(Cc4ccc(S(C)(=O)=O)cc4)CC3)n2)c(C)c1 | MTT | 21 µM
CCc1c(C(=O)c2cccc3ccccc23)n(CC(=O)c2ccc(OC)cc2)c(=O)[nH]c1=O | MTT | 28.75 µM
CC(=O)O[C@H]1C[C@@]2(C)[C@@H](C[C@@H](O)[C@H]3[C@@]4(C)CC[C@@H](O)[C@@H](C)[C@@H]4CC[C@@]32C)/C1=C(\CCC=C(C)C)C(=O)O | - | >46 µM
CC(=O)OC[C@@]12C[C@@]3(O)C(=O)[C@]1(C)C1C2[C@H]2C4C(C)(C)[C@]4(OC(C)=O)[C@H](OC(C)=O)[C@@H](C)[C@]2(O)[C@H]13 | - | >500 µg/mL
OCc1cn(Cc2ccncc2)c(Sc2cc(Cl)cc(Cl)c2)c1C1CCCCC1 | MTT | 84 µM
CCOC(=O)c1cn(Cc2ccncc2)c(Sc2ccc(C)cc2)c1C(C)C | MTT | 60 µM
Nc1ncnc2c1ncn2[C@@H]1C[C@H](CO)[C@@H](O)C1 | MTT | 50 µg/mL
Cc1cn([C@@H]2O[C@H](CO[Si](C)(C)C(C)(C)C)C3(OS(=O)(=O)C=C3N)[C@H]2O[Si](C)(C)C(C)(C)C)c(=O)n(CCOC(=O)[C@@H](N)C(C)C)c1=O | - | 20 µM
CCOC(=O)c1cn(Cc2ccncc2)c(Sc2cc(Cl)cc(Cl)c2)c1C1CC1 | MTT | 70 µM
Cn1ncc2c1S(=O)(=O)N(CCc1ccccc1)C(=O)N2CCc1ccccc1 | MTT | ≥319.4 µM
C(CCC1CNCCNCCCNCCNC1)CCC1CNCCNCCCNCCNC1 | - | 70 µM
N#CCN1C(=O)N(Cc2ccccc2)S(=O)(=O)c2cscc21 | MTT | 502.7 µM
CCOC(=O)c1cn(Cc2ccncc2)c(Sc2cc(F)cc(F)c2)c1C(C)C | MTT | 42 µM
CCc1c(C(=O)c2cccc3ccccc23)n(COC)c(=O)[nH]c1=O | MTT | 34.35 µM
C=C1[C@H](CO)[C@@H](O)C[C@@H]1n1cnc2c(=O)[nH]c(N)nc21 | MTT | >28 µM
CC(C)c1c(C(O)c2ccccc2)cn(Cc2ccncc2)c1Sc1cc(Cl)cc(Cl)c1 | MTT | 20 µM
Cn1ncc2c1S(=O)(=O)N(CCc1ccccc1)C(=O)N2CCC#N | MTT | ≥209.4 µM
CCOC(=O)c1cn(Cc2cccnc2)c(Sc2cc(Cl)cc(Cl)c2)c1C(C)C | MTT | >200 µM
Cc1cc(C#N)cc(C)c1Oc1ccc([N+](=O)[O-])c(NC2CCN(Cc3ccc(C(N)=O)cc3)CC2)n1 | MTT | 27 µM
Cc1cc(C#N)cc(C)c1Oc1ccnc(NC2CCN(CC(=O)Nc3ccc(F)cc3)CC2)n1 | MTT | 1.812 µM
Cc1ccc(Sc2c(C(C)C)c(COC(N)=O)cn2Cc2ccncc2)cc1 | MTT | >200 µM
C1CCNCCNCCCNCCNC1 | - | >930 µM
CC(=O)O[C@@H]1[C@@H](C)[C@@]2(O)[C@@H](C=C(CO)C[C@]3(O)C(=O)C(C)=C[C@@H]23)[C@@H]2C(C)(C)[C@]12O | - | >500 µg/mL
Cn1ncc2c1S(=O)(=O)N(CCc1ccccc1)C(=O)N2CCc1ccc(C#N)cc1 | MTT | 24.2 µM
Cc1cc(C#N)cc(C)c1Oc1ccnc(NC2CCN(CC(=O)Nc3cccc(F)c3)CC2)n1 | MTT | 1.412 µM
Cn1ncc2c1S(=O)(=O)N(CCc1ccc(Br)cc1)C(=O)N2CCc1ccc(Br)cc1 | MTT | 161.6 µM
CC1=C[C@H]2[C@@]3(O)[C@H](C)[C@@H](O)[C@]4(O)[C@H]([C@@H]3C=C(CO)C[C@]2(O)C1=O)C4(C)C | - | >1000 µg/mL

5 of the rows above, restated:

SMILES,method,result
Cc1cc(C#N)cc(C)c1Oc1ccnc(NC2CCN(CC(=O)Nc3ccc(F)cc3)CC2)n1,MTT,1.812 µM
CC(C)c1c(C(O)c2ccccc2)cn(Cc2ccncc2)c1Sc1cc(Cl)cc(Cl)c1,MTT,20 µM
C1CNCCNCC(CCCC2CNCCNCCCNCCNC2)CNCCNC1,-,300 µM
CC(=O)O[C@@H]1[C@@H](C)[C@@]2(O)[C@@H](C=C(CO)C[C@]3(O)C(=O)C(C)=C[C@@H]23)[C@@H]2C(C)(C)[C@]12O,-,>500 µg/mL
Cc1cc(C#N)cc(C)c1Oc1ccc([N+](=O)[O-])c(NC2CCN(Cc3ccc(S(C)(=O)=O)cc3)CC2)n1,MTT,>146 µM